PubChem BioAssay AID504761 – Drosophila RNAi Screening Center, 2011
Screen: 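Genome-wide fly cell screen for genes dengue virus requires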 (primary screen). System: D.Mel-2 cells from Drosophila. Knock-down reagent: long dsRNA against Drosophila genes. Treatment: infection with dengue virus type 2; dose and infection time not stated. Measured: 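Cells stained for dengue envelope protein and imaged; percent of infected cells per well on duplicate plates, ranked by infection, with stained nuclei counted for cell number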. Scale: infection score: higher = more virus-infected cells; cell count: higher = more cells in the well. Rule for the call: 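Low infection ranks in the two replicates (chance level up to 0.065) followed by a retest with a 1.5-fold or larger significant decrease, p below 0.05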. Calls: active = confirmed: knock-down lowers infection; inactive = not picked or not confirmed.
The screen tested about 22,000 reagents; below is an unselected part of those that have a named target and a result. In the full data, 116 (0.52%) are marked active. 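Calls depend on retest data that are not deposited; infection was ranked per plate without normalising between plates; the unit of the infection score is not given.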 The raw values are shown without normalisation. Further read-outs or replicates are left out here. Not stated in the record: the amount of reagent, the time to read-out.

CG13814 (retired record) [DRSC10069] gave infection score, replicate 1 = 4.83; cell count, replicate 1 = 6748; inactive.
Depletion of CG6330 [DRSC16022] resulted in: infection score, replicate 1 = 4.29; cell count, replicate 1 = 6639; inactive.
Against CG32821 (retired record) [DRSC22544] the deposit lists infection score, replicate 1 = 2.88; cell count, replicate 1 = 6659; inactive.
For Gr68a [DRSC10803], the values are infection score, replicate 1 = 6.46; cell count, replicate 1 = 5525; inactive.
gpp [DRSC12515] showed infection score, replicate 1 = 10.1; cell count, replicate 1 = 5787; inactive.
After knock-down of gpp [DRSC28193], the screen gave infection score, replicate 1 = 8.07; cell count, replicate 1 = 3494; inactive.
With knock-down of Septin2 [DRSC16855] the results were infection score, replicate 1 = 6.35; cell count, replicate 1 = 6221; inactive.
Silencing of CG17658 [DRSC04292] gave: infection score, replicate 1 = 22.1; cell count, replicate 1 = 5538; inactive.
For Try29F [DRSC03466], the entry reads infection score, replicate 1 = 5.71; cell count, replicate 1 = 6707; inactive.
Silencing of Try29F [DRSC25721] came out at: infection score, replicate 1 = 4.69; cell count, replicate 1 = 6458; inactive.
With knock-down of CG18234 [DRSC10309] the results were infection score, replicate 1 = 6.55; cell count, replicate 1 = 6218; inactive.
eIF3g2 [DRSC14275] scored infection score, replicate 1 = 2.43; cell count, replicate 1 = 6710; inactive.
Depletion of eIF3g2 [DRSC28960] resulted in: infection score, replicate 1 = 10.5; cell count, replicate 1 = 2538; inactive.
Against CG30269 [DRSC04158] the deposit lists infection score, replicate 1 = 9.55; cell count, replicate 1 = 6814; inactive.

Only “cell count, replicate 1” (2 entries from above):
CG13814 (retired record) [DRSC10069] = 6748
CG6330 [DRSC16022] = 6639
